A mixed list of measured activities; the numbers were collected in NIAID ChemDB.

All rows: growth or infection tests; organism: Staphylococcus aureus; read-out: MIC

Conditions beyond the fields shown may differ between rows.

O=C(O)c1cn(C2CC2)c2cc(NCCCCO)c(F)cc2c1=O ; strain: ATCC 6538P ; value: >100 µg/mL
O=C(NC[C@H]1CN(c2ccc3c(c2)-n2cccc2COC3)C(=O)O1)OCc1ccccc1 ; strain: ATCC 33591 (MRSA) ; value: >32 µg/mL
CC1CN(c2cc3c(cc2F)c(=O)c(C(=O)O)cn3-c2ccc(F)cc2F)CCN1 ; strain: ATCC 6538P ; value: 0.39 µg/mL
CC(C)(Br)C(=O)NC[C@H]1CN(c2ccc3c(c2)-n2cccc2COC3)C(=O)O1 ; strain: ATCC 33591 (MRSA) ; value: 32 µg/mL
CC[C@H]1OC(=O)[C@@](C)(F)C(=O)[C@H](C)[C@@H](O[C@@H]2O[C@H](C)C[C@H](N(C)C)[C@H]2O)[C@@]2(C)C[C@@H](C)C(=NC(C)=O)[C@H](C)[C@@H](OC/C(=N\OCc3ccc4nc(N)sc4c3)CO2)[C@]1(C)O ; strain: 33591 (erythromycin methicillin-resistant) ; value: 32 µg/mL
CC1CN(c2cc3c(cc2F)c(=O)c(C(=O)O)cn3C2CC2)CC(C)N1 ; strain: ATCC 5278 (methicillin-resistant) ; value: 1.56 µg/mL
O=C1O[C@@H](COc2ccon2)CN1c1ccc(N2CCOCC2)c(F)c1 ; strain: 122 (novobiocin-resistant) ; value: 4 µg/mL
COC(=O)NC[C@H]1CN(c2ccc3c(c2)-n2cccc2COC3)C(=O)O1 ; strain: ATCC 49951 (SMITH) ; value: 4 µg/mL
CO/N=C1\CN(c2nc3c(cc2F)c(=O)c(C(=O)O)cn3C2CC2)CC1CN ; strain: KU2243 ; value: 32 µg/mL
CC(=O)NC[C@H]1CN(c2ccc(-c3cnn(C(C)=O)c3)c(F)c2)C(=O)O1 ; strain: UC6685 (methicillin-resistant) ; value: 2 µg/mL
CCC(N)CCNc1cc2c(cc1F)c(=O)c(C(=O)O)cn2C1CC1 ; strain: ATCC 5278 (methicillin-resistant) ; value: 3.12 µg/mL
CC(=O)NC[C@H]1CN(c2ccc(-c3ccsc3)c(F)c2)C(=O)O1 ; strain: UC9213 (methicillin-susceptible) ; value: 0.5 µg/mL
CC[C@H]1OC(=O)[C@H](C)C(=O)[C@H](C)[C@@H](O[C@@H]2O[C@H](C)C[C@H](N(C)C)[C@H]2O)[C@](C)(OC)C[C@@H](C)C(=O)[C@H](C)[C@H]2N(CCCCn3cnc(-c4cccnc4)c3)C(=O)O[C@]12C ; strain: 29213 (erythromycin A-susceptible) ; value: 0.13 µg/mL
CCC(=S)NC[C@H]1CN(c2ccc3c(c2)-n2cccc2COC3)C(=O)O1 ; strain: ATCC 49951 (SMITH) ; value: 4 µg/mL
N#Cc1ccc(N2CCN(c3ccc(N4C[C@H](CNc5cnccn5)OC4=O)cc3F)CC2)nn1 ; strain: 004 (methicillin quinolone-resistant) ; value: 0.5 µg/mL
CC[C@H]1OC(=O)[C@@](C)(F)C(=O)[C@H](C)[C@@H](O[C@@H]2O[C@H](C)C[C@H](N(C)C)[C@H]2O)[C@@]2(C)C[C@@H](C)C(=NC(C)=O)[C@H](C)[C@@H](OC/C(=N\OCc3ccc(-n4cccn4)nc3)CO2)[C@]1(C)O ; strain: 27660 (erythromycin A -resistant) ; value: 0.13 µg/mL
O=C(NC[C@H]1CN(c2ccc3c(c2)-n2cccc2COC3)C(=O)O1)c1ccccc1 ; strain: ATCC 29213 (MSSA) ; value: >32 µg/mL
CC[C@H]1OC(=O)[C@@](C)(F)C(=O)[C@H](C)[C@@H](O[C@@H]2O[C@H](C)C[C@H](N(C)C)[C@H]2O)[C@@]2(C)C[C@@H](C)C(=N)[C@H](C)[C@@H](OC/C(=N\OCc3ccc(-c4nccs4)nc3)CO2)[C@]1(C)O ; strain: 27660 (erythromycin A -resistant) ; value: 0.25 µg/mL
CCOCCCNc1cc2c(cc1F)c(=O)c(C(=O)O)cn2C1CC1 ; strain: ATCC 6538P ; value: >100 µg/mL
CC(=O)NC[C@H]1CN(c2ccc(-c3noc(C(F)(F)F)n3)c(F)c2)C(=O)O1 ; strain: UC9213 (methicillin-susceptible) ; value: 16 µg/mL
Cc1c(NC(C)C)c(F)cc2c(=O)c(C(=O)O)cn(-c3cc(N)c(F)cc3F)c12 ; strain: W44 (methicillin-resistant) ; value: 0.06 µg/mL
O=C1O[C@@H](CNc2ccon2)CN1c1ccc(-n2cnc(CO)c2)c(F)c1 ; strain: 004 (methicillin quinolone-resistant) ; value: 2 µg/mL
CC[C@H]1OC(=O)[C@H](C)C(=O)[C@H](C)[C@@H](O[C@@H]2O[C@H](C)C[C@H](N(C)C)[C@H]2O)[C@@]2(C)C[C@@H](C)C(=NC(C)=O)[C@H](C)[C@@H](OC/C(=N/OCc3ccc(-c4cccc(N)n4)s3)CO2)[C@]1(C)O ; strain: 33591 (erythromycin methicillin-resistant) ; value: >64 µg/mL
CC(=O)NC[C@H]1CN(c2ccc(-c3ccnn3C)c(F)c2)C(=O)O1 ; strain: UC6685 (methicillin-resistant) ; value: ≤0.5 µg/mL
CNc1c(F)cc2c(=O)c(C(=O)O)cn(-c3cc(N)c(F)cc3F)c2c1C ; strain: SMITH ; value: <0.004 µg/mL
NCCSc1cc2c(cc1F)c(=O)c(C(=O)O)cn2-c1ccc(F)cc1F ; strain: ATCC 6538P ; value: 0.39 µg/mL
O=C(CO)N[C@H]1CCN(c2ccc(N3C[C@H](CNc4ccon4)OC3=O)cc2F)C1 ; strain: 078 (oxford) ; value: 0.5 µg/mL
Cc1c(N)c(F)cc2c(=O)c(C(=O)O)cn(-c3cc(N)c(F)cc3F)c12 ; strain: 209P ; value: 0.008 µg/mL

For reference, 3 entries again:

compound,strain,value
CC[C@H]1OC(=O)[C@H](C)C(=O)[C@H](C)[C@@H](O[C@@H]2O[C@H](C)C[C@H](N(C)C)[C@H]2O)[C@](C)(OC)C[C@@H](C)C(=O)[C@H](C)[C@H]2N(CCCCn3cnc(-c4cccnc4)c3)C(=O)O[C@]12C,29213 (erythromycin A-susceptible),0.13 µg/mL
CC(=O)NC[C@H]1CN(c2ccc(-c3ccsc3)c(F)c2)C(=O)O1,UC9213 (methicillin-susceptible),0.5 µg/mL
NCCSc1cc2c(cc1F)c(=O)c(C(=O)O)cn2-c1ccc(F)cc1F,ATCC 6538P,0.39 µg/mL